The text below walks through data of article PMC3227725, “The Cryptosporidium parvum Kinome” (BMC Genomics, 2011).

Amino acid sequences for entries named in this document (tags omitted). Residues count along the entry.
UniProt A3FQ16, 1-538: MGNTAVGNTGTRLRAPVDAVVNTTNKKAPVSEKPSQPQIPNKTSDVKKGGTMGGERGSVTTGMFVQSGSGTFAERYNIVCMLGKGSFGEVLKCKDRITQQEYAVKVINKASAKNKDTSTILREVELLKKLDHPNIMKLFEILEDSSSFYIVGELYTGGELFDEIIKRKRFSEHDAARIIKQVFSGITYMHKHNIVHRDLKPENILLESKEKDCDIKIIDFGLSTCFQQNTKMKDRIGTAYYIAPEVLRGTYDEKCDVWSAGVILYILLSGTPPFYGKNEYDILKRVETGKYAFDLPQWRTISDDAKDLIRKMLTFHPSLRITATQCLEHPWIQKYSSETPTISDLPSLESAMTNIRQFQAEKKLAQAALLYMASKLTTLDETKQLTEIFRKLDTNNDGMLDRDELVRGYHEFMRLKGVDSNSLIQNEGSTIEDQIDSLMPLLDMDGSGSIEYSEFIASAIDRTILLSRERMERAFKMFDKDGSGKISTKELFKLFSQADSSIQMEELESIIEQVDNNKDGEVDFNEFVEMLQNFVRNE

For this experiment, the target named is CpCDPK1 (Cryptosporidium parvum, UniProt A3FQ16). Nature of the experiment: CpCDPK1 inhibition, NADH-coupled ATPase (PK/LDH) assay. The format is biochemical. The following applies: 10 nM CpCDPK1, 500 μM ATP and 500 μM Syntide2.
Regarding `CC(C)(C)n1nc(Cc2ccccc2)c2c(N)ncnc21`, the IC50 – broadly, the concentration that inhibits the measured activity by half – was 3.4 nM.

The molecule `CC(C)(C)n1nc(CCc2ccccc2)c2c(N)ncnc21` returned an IC50 of 4.7 nM. This IC50 and that of the molecule before are within 1.5-fold of each other.

For the molecule `CC(C)(C)n1nc(CC2CCCC2)c2c(N)ncnc21`, the IC50 is 616 nM.

Molecule `CC(C)(C)n1nc(Cc2cccc(Br)c2)c2c(N)ncnc21` registered a half-maximal inhibitory concentration (IC50) of 2.1 nM.

Take `Cc1ccc(-c2nn(C(C)(C)C)c3ncnc(N)c23)cc1`: the IC50 was found to be 7 nM.

The molecule `Nc1ncnc2c1c(Cc1cccc3ccccc13)nn2C1CCCC1` returned an IC50 of 5.6 nM.

The molecule `Cc1ccccc1Cc1nn(C(C)(C)C)c2ncnc(N)c12` registered an IC50 of 15.2 nM.

With `Cc1ccc(Cc2nn(C(C)(C)C)c3ncnc(N)c23)cc1`, the IC50 is 96 nM.

With `CC(C)(C)n1nc(Cc2cccc(I)c2)c2c(N)ncnc21`, the IC50 came out at 2.1 nM.

Consider `CC(C)(C)n1nc(Cc2cccc3ccccc23)c2c(N)ncnc21`, for which the IC50 was determined as 0.9 nM.

Molecule `COc1cccc(Cc2nn(C(C)(C)C)c3ncnc(N)c23)c1` gave an IC50 of 2.8 nM. Compared with the last molecule, the IC50 is about 3.1-fold higher.

`CC(C)(C)n1nc(-c2cccc3ccccc23)c2c(N)ncnc21`: the IC50 was found to be 88 nM.

As for `COc1ccccc1Cc1nn(C(C)(C)C)c2ncnc(N)c12`, the 50% inhibitory concentration (IC50) is 22 nM. Against the preceding molecule, the IC50 is about 4-fold lower.
